Assays:
[1] = biological target: human N-type calcium channel (human) (UniProt Q00975); test: cell-based or functional assay
[2] = biological target: human N-type calcium channel (human), Q00975; test: cell-based or functional assay

| Molecule | Blocking activity (%), 30 nM peptide [1] [%] | Recovery (%), 30 nM peptide [1] [%] | Blocking activity (%), 30 nM peptide [2] [%] | Recovery (%), 30 nM peptide [2] [%] |
| --- | --- | --- | --- | --- |
| ω-conotoxin FVIA | 94.7 | 69.7 |  |  |
| CKGKGAKCSRLMYDCCTGSCRSGKC (modifications not checked) [ω-conotoxin MVIIA] |  |  | 81.5 | 39.5 |

— patent publication US20100056456A1, “Omega conotoxins” (published 2010)
